According to patent publication US20240122867A1, “CORONAL PROTEIN-COATED NANOPARTICLES AND USES THEREOF” (UNIVERSITY OF CENTRAL FLORIDA RESEARCH FOUNDATION, INC., priority 2021, published 2024):

Tested on: coronal proteins on NPs
Parameters: species or system mouse
Settings: for V5 Sera_Nanoparticles Quantitative Value (Normalized Total Spectra): HBPE-NPs incubated 1 h with IAV day 5 (V5) mouse sera, 20:1 NP:sera, centrifuged and washed; for V5 Sera Alone (Control) Quantitative Value (Normalized Total Spectra): IAV day 5 (V5) mouse sera alone, no NPs (sera-only control)

Row | Molecule | V5 Sera_Nanoparticles Quantitative Value (Normalized Total Spectra) | V5 Sera Alone (Control) Quantitative Value (Normalized Total Spectra)
1 | Hemopexin (protein, UniProt Q91X72 24-460, looked up) Hemopexin: SPLPTANGRVAEVENGTKPDSDVPEHCLDTWSFDAATMDHNGTMLFFKGEFVWRGHSGTRELISARWKNPITSVDAAFRGPDSVFLIKEDKVWVYPPEKKENGYPKLFQEEFPGIPYPPDAAVECHRGECQSEGVLFFQGNRKWFWDFATRTQKERSWSTVGNCTAALRWLERYYCFQGNKFLRFNPVTGEVPPRYPLDARDYFVSCPGRGHGRPRNGTAHGNSTHPMHSRCSPDPGLTALLSDHRGATYAFTGSHYWRLDSSRDGWHSWPIAHHWPQGPSTVDAAFSWDDKVYLIQGTQVYVFLTKGGNNLVSGYPKRLEKELGSPPGISLETIDAAFSCPGSSRLYVSSGRRLWWLDLKSGAQATWTEVSWPHEKVDGALCLDKSLGPNTCSSNGSSLYFIHGPNLYCYSSIDKLNAAKSLPQPQKVNSILGCSQ | 62.011 | 53.663
2 | Fibrinogen gamma chain (protein, UniProt Q8VCM7 26-436, looked up) Fibrinogen gamma chain: YVATRDNCCILDERFGSFCPTTCGIADFLSSYQTDVDNDLRTLEDILFRAENRTTEAKELIKAIQVYYNPDQPPKPGMIDSATQKSKKMVEEIVKYEALLLTHETSIRYLQEIYNSNNQKITNLKQKVAQLEAQCQEPCKDSVQIHDTTGKDCQEIANKGAKESGLYFIRPLKAKQQFLVYCEIDGSGNGWTVLQKRIDGSLDFKKNWIQYKEGFGHLSPTGTTEFWLGNEKIHLISMQSTIPYALRIQLKDWNGRTSTADYAMFRVGPESDKYRLTYAYFIGGDAGDAFDGYDFGDDPSDKFFTSHNGMQFSTWDNDNDKFEGNCAEQDGSGWWMNKCHAGHLNGVYHQGGTYSKSSTTNGFDDGIIWATWKSRWYSMKETTMKIIPFNRLSIGEGQQHHMGGSKQAGDV | 3.2638 | 4.6261
3 | Cluster of Keratin, type I cytoskeletal 10 (protein, UniProt P02535 1-570, looked up, protein cluster) Keratin, type I cytoskeletal …: MSVLYSSSSKQFSSSRSGGGGGGGSVRVSSTRGSLGGGYSSGGFSGGSFSRGSSGGGCFGGSSGGYGGFGGGGSFGGGYGGSSFGGGYGGSSFGGGYGGSSFGGAGFGGGGSFGGGSFGGGSYGGGFGGGGFGGDGGSLLSGNGRVTMQNLNDRLASYMDKVRALEESNYELEGKIKEWYEKHGNSSQREPRDYSKYYKTIEDLKGQILTLTTDNANVLLQIDNARLAADDFRLKYENEVTLRQSVEADINGLRRVLDELTLSKSDLEMQIESLNEELAYLKKNHEEEMRDLQNVSTGDVNVEMNAAPGVDLTQLLNNMRNQYEQLAEKNRKDAEEWFNQKSKELTTEIDSNIEQMSSHKSEITELRRTVQGLEIELQSQLALKQSLEASLAETEGRYCVQLSQIQSQISALEEQLQQIRAETECQNAEYQQLLDIKTRLENEIQTYRSLLEGEGSSSGGGGGRRGGSGGGSYGGSSGGGSYGGSSGGGGSYGGSSGGGGSYGGGSSGGGSHGGSSGGGYGGGSSSGGAGGHGGSSGGGYGGGSSSGGQGGSGGFKSSGGGDQSSKGPRY | 3.2638 | 7.4018
4 | Keratin, type I cytoskeletal 10 (protein, UniProt P02535 1-570, looked up) Keratin, type I cytoskeletal …: MSVLYSSSSKQFSSSRSGGGGGGGSVRVSSTRGSLGGGYSSGGFSGGSFSRGSSGGGCFGGSSGGYGGFGGGGSFGGGYGGSSFGGGYGGSSFGGGYGGSSFGGAGFGGGGSFGGGSFGGGSYGGGFGGGGFGGDGGSLLSGNGRVTMQNLNDRLASYMDKVRALEESNYELEGKIKEWYEKHGNSSQREPRDYSKYYKTIEDLKGQILTLTTDNANVLLQIDNARLAADDFRLKYENEVTLRQSVEADINGLRRVLDELTLSKSDLEMQIESLNEELAYLKKNHEEEMRDLQNVSTGDVNVEMNAAPGVDLTQLLNNMRNQYEQLAEKNRKDAEEWFNQKSKELTTEIDSNIEQMSSHKSEITELRRTVQGLEIELQSQLALKQSLEASLAETEGRYCVQLSQIQSQISALEEQLQQIRAETECQNAEYQQLLDIKTRLENEIQTYRSLLEGEGSSSGGGGGRRGGSGGGSYGGSSGGGSYGGSSGGGGSYGGSSGGGGSYGGGSSGGGSHGGSSGGGYGGGSSSGGAGGHGGSSGGGYGGGSSSGGQGGSGGFKSSGGGDQSSKGPRY | 3.2638 | 7.4018
